Results of unrelated studies side by side (data: NIAID ChemDB).

Shared fields: tests in culture; agent: HIV-1; cell line: CEM; read-out: EC50

Rows are shuffled and stem from different studies. ECn: concentration that inhibits the pathogen or its effect by n%. An empty or dashed field is not shown.

smiles,strain,mutations,method,result
Cc1cn([C@@H]2O[C@H](CO[Si](C)(C)C(C)(C)C)C3(OS(=O)(=O)C=C3N)[C@H]2O[Si](C)(C)C(C)(C)C)c(=O)n(C)c1=O,IIIB,RT-V106A,cytopathic effect,0.23 µg/mL
CCn1c(=O)c(C)cn([C@@H]2O[C@H](CO[Si](C)(C)C(C)(C)C)C3(OS(=O)(=O)C=C3N)[C@H]2O[Si](C)(C)C(C)(C)C)c1=O,IIIB TIBO R82150-resistant (RT L100I),RT-L100I,syncytia,0.09 µM
Cc1ccnc2c1NC(=O)c1cccnc1N2C1CC1,A-0 (RT-L100I),RT-L100I,cytopathic effect,0.019 µg/mL
CCc1cc(NCc2nc3c(Cl)ccc(Cl)c3o2)c(=O)[nH]c1C,IIIB,,syncytia,0.02 µM
Nc1ncnc2c1ncn2CCOCP(=O)(O)O,IIIB,,syncytia,7 µM
CC[C@H]1C(=O)Nc2ccc(F)cc2N1C(=O)OC(C)C,Q-1 (RT T139K Y181C Y188D/Y),RT-T139K Y181C Y188D/Y,cytopathic effect,0.036 µg/mL
CC(C)=CCN1Cc2cc(Cl)cc3[nH]c(=S)n(c23)C[C@@H]1C,IIIB TSAO-T(RT-E138K),RT-E138K,syncytia,0.1 µM
CCn1c(=O)c(C)cn([C@@H]2O[C@H](CO[Si](C)(C)C(C)(C)C)C3(OS(=O)(=O)C=C3N)[C@H]2O[Si](C)(C)C(C)(C)C)c1=O,IIIB,RT-Y181C,syncytia,>75 µM
CCOCn1c(Cc2ccccc2)c(CC)c(=O)[nH]c1=O,IIIB E-EBU(RT-Y181C),RT-Y181C,syncytia,≥20 µg/mL
CC(C)=CCN1Cc2cc(Cl)cc3[nH]c(=S)n(c23)C[C@@H]1C,IIIB,,syncytia,0.06 µM
Fc1cccc(F)c1[C@@H]1SCc2nc3ccccc3n21,IIIB,RT-L100I,cytopathic effect / XTT,20.8 µM
CCOCn1c(Cc2cc(C)cc(C)c2)c(CC)c(=O)[nH]c1=O,IIIB TSAO-T(RT-E138K),RT-E138K,syncytia,0.07 µM
CC(C)Nc1cccnc1N1CCN(C(=O)c2cc3ccccc3[nH]2)CC1,TIBO-1(RT-L100I),RT-L100I,syncytia,1.6 µM
CCOCn1c(Sc2ccccc2)c(CC)c(=O)[nH]c1=O,IIIB E-EBU(RT-Y181C),RT-Y181C,syncytia,≥20 µg/mL
CC(C)=CCN1Cc2cc(Cl)cc3[nH]c(=S)n(c23)C[C@@H]1C,IIIB-TIBO(0.5)(RT-L100I),RT-L100I,syncytia,0.13 µg/mL
CC(C)=CCN1Cc2cc(Cl)cc3[nH]c(=S)n(c23)C[C@@H]1C,HEPT (RT Y188H),RT-Y188H,syncytia,3.1 µM
CCOCn1c(Sc2ccccc2)c(CC)c(=O)[nH]c1=S,IIIB E-EBU(RT-Y181C),RT-Y181C,syncytia,≥20 µg/mL
Fc1cccc(F)c1C1SCc2nc3ccccc3n21,IIIB,,cytopathic effect / XTT,1.39 µM
Cc1cn([C@@H]2O[C@H](CO[Si](C)(C)C(C)(C)C)C3(OS(=O)(=O)C=C3N)[C@H]2O[Si](C)(C)C(C)(C)C)c(=O)n(C)c1=O,TIBO-1(RT-L100I),RT-L100I,syncytia,0.07 µM
O=c1[nH]cnc2c1ncn2[C@H]1CC[C@@H](CO)O1,IIIB,RT-L100I,syncytia,4.83 ± 2.02 µM
Cc1cn([C@@H]2O[C@H](CO[Si](C)(C)C(C)(C)C)C3(OS(=O)(=O)C=C3N)[C@H]2O[Si](C)(C)C(C)(C)C)c(=O)n(C)c1=O,IIIB,RT-D138K,cytopathic effect / XTT,>16 µM
Cc1cn([C@@H]2O[C@H](CO[Si](C)(C)C(C)(C)C)C3(OS(=O)(=O)C=C3N)[C@H]2O[Si](C)(C)C(C)(C)C)c(=O)n(C)c1=O,IIIB-TIBO(0.5)(RT-L100I),RT-L100I,syncytia,0.04 µg/mL
C=C(C)OC(=O)N1c2cc(Cl)ccc2NC(=S)C1(C)C,IIIB,RT-M184I,p24,0.001 µg/mL
CC(C)=CCOc1cc(NC(=S)c2ccoc2C)ccc1Cl,IIIB,RT-K103N,cytopathic effect,0.023 µg/mL
Cc1ccnc2c1NC(=O)c1cccnc1N2C1CC1,IIIB,RT-L100I,p24,0.1 µg/mL
Cc1cn([C@@H]2O[C@H](CO[Si](C)(C)C(C)(C)C)[C@@]3(OS(=O)(=O)C=C3N)[C@H]2O[Si](C)(C)C(C)(C)C)c(=O)[nH]c1=O,IIIB TIBO R82913 STR-B22 (RT L100I Y188H),RT-L100I Y188H,syncytia,4 µM
COc1ccc2c(c1)N(C(=O)OC(C)C)[C@@H](CSC)C(=S)N2,IIIB,RT-Y181C,p24,0.002 µg/mL
CCc1cc(NCc2nc3c(Cl)ccc(Cl)c3o2)c(=O)[nH]c1C,IIIB-TIBO(0.1),,syncytia,0.07 µg/mL
Cc1cn([C@@H]2O[C@H](CO[Si](C)(C)C(C)(C)C)C3(OS(=O)(=O)C=C3N)[C@H]2O[Si](C)(C)C(C)(C)C)c(=O)n(C)c1=O,IIIB HEPT-resistant (RT Y188H),RT-Y188H,syncytia,≥50 µg/mL
Nc1ncnc2c1ncn2CC(CF)OCP(=O)(O)O,IIIB,,syncytia,3 µM
CCNc1cccnc1N1CCN(C(=O)c2cc3cc(OC)ccc3[nH]2)CC1,IIIB E-EBU(RT-Y181C),RT-Y181C,syncytia,9 µg/mL
CCc1cc(NCc2nc3c(Cl)ccc(Cl)c3o2)c(=O)[nH]c1C,IIIB,,syncytia,0.02 µM
CCOCn1c(Cc2ccccc2)c(C(C)C)c(=O)[nH]c1=O,E-2 (RT-V106A),RT-V106A,cytopathic effect,0.015 µg/mL
CCOCn1c(Sc2ccccc2)c(CC)c(=O)[nH]c1=S,IIIB,RT-C181I,syncytia,0.78 µM
O=c1[nH]cnc2c1ncn2[C@H]1CC[C@@H](CO)O1,IIIB-TSAO-m3T(10)(RT-Y181C),RT-Y181C,syncytia,5.5 µM
Cc1occc1C(=S)Nc1ccc(Cl)c(/C=N/OC(C)(C)C)c1,IIIB,RT-V106A,cytopathic effect,0.05 µg/mL
Nc1ccn([C@H]2CC[C@@H](CO)O2)c(=O)n1,RTMC (RT D67N K70R T215F K219Q),RT-D67N K70R T215F K219Q,p24,0.025 µg/mL

The last 3 rows once more:

{"smiles": "O=c1[nH]cnc2c1ncn2[C@H]1CC[C@@H](CO)O1", "strain": "IIIB-TSAO-m3T(10)(RT-Y181C)", "mutations": "RT-Y181C", "method": "syncytia", "result": "5.5 µM"}
{"smiles": "Cc1occc1C(=S)Nc1ccc(Cl)c(/C=N/OC(C)(C)C)c1", "strain": "IIIB", "mutations": "RT-V106A", "method": "cytopathic effect", "result": "0.05 µg/mL"}
{"smiles": "Nc1ccn([C@H]2CC[C@@H](CO)O2)c(=O)n1", "strain": "RTMC (RT D67N K70R T215F K219Q)", "mutations": "RT-D67N K70R T215F K219Q", "method": "p24", "result": "0.025 µg/mL"}